Results as given in patent publication US20240285753A1 (DUKE UNIVERSITY, published 2024).

How the values were obtained:
[1] = target: SARS-CoV-2 BA.1 recombinant spike (hexapro) (SARS-CoV-2); assay: ELISA, coated spike, mAb titrated
[2] = target: SARS-CoV-2 XBB1.5 recombinant spike (hexapro) (SARS-CoV-2); assay: ELISA, coated spike, mAb titrated

B1: DH1498 (antibody, V domains shown)
VH: QVQLQESGPGLVKPSETLSLTCAVSGGSVSSDTYYWSWIRQPPGKGLEWIGYIYNSGSTNYNPSLKSRVTISVDTSKSQFSLNLGSVTAADTAVYYCAREGAGTYPPKNDAFDIWGQGTLVTVSS
VL: EIVLTQSPDSLAVSLGERATINCKSSQSVLFSSDNKNYLAWYQQKPGQPPKLLIYWASTRESGVPDRFSGSGSGTDFTLTISSLQAEDVAVYYCQQYYNSPRTFGQGTKVEIK
EC50 (read off the curve) [1]: ~0.02 µg/mL | EC50 (read off the curve) [2]: ~0.02 µg/mL
